Reference: PubChem BioAssay AID504761 (Drosophila RNAi Screening Center, 2011)
Purpose: 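Insect host genes that dengue virus relies on to spread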 (primary screen). System: D.Mel-2 cells from Drosophila. Knock-down reagent: long dsRNA against Drosophila genes. Challenge: infection with dengue virus type 2; dose and infection time not stated. Read-out: 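Per well on two replicate plates, imaging gave the percent of cells positive for viral envelope protein, ranked by infection, and a nuclear count of cells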. Direction: infection score: higher = more virus-infected cells. Rule for the call: 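Low infection ranks in the two replicates (chance level up to 0.065) followed by a retest with a 1.5-fold or larger significant decrease, p below 0.05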. Calls: active = confirmed: knock-down lowers infection; inactive = not picked or not confirmed.
In all, the deposit lists about 22,000 reagents; this is an unselected part of those that have a named target and a result. Of all reagents, 116 (0.52%) are marked active. 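Calls depend on retest data that are not deposited; infection was ranked per plate without normalising between plates; the unit of the infection score is not given.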 Unmarked entries are inactive. Reagents against one gene are numbered here. Not all columns of the deposit are shown. Not stated in the record: the amount of reagent, the time to read-out.

infection score, replicate 1, by target and reagent
Atf3 (Activating transcription factor 3): #1 1.39
Mocs1 (Molybdenum cofactor synthesis 1): #1 2.2
CG7512: #1 2.12
mRRF2 (mitochondrial ribosome recycling factor 2): #1 8.27
Orai: #1 2.8
beta-Spec (beta Spectrin): #1 10.8
Usp47 (Ubiquitin specific protease 47): #1 10.4
CG6813: #1 2.86
flip (flippy): #1 8.09
CG14445: #1 6.95; #2 1.26
CG12782: #1 11.2
CG32832: #1 2.88
ple (pale): #1 4.41
CG3706: #1 4.79
usp (ultraspiracle): #1 4.42; #2 1.73
Gas8 (Growth arrest specific protein 8): #1 0.86; #2 13.3
CG6283: #1 0.77; #2 17.7
CG14591: #1 11.1
Cpr65Ec (Cuticular protein 65Ec): #1 4.58; #2 21.4

Quoted from above for reference:
infection score, replicate 1, by target and reagent
CG12782: #1 11.2
CG32832: #1 2.88
